Data from US20190359662A1.

Molecular target: hNav1.1 (human), P35498
Assay: cell-based or functional assay

| Binder | Selectivity for Nav1.7, membrane potential assay |
| --- | --- |
| DCRYMFGDCEKDEDCCKHLGCKRKMKYCAWDFTFT (modifications not checked) [Pnc1a-CONH2] | 18 fold |
| DCRYMFGDCEKDEDCCKHLGCKRKMKYCAWDFTFT (modifications not checked) [Ac-Pnc1a] | 41 fold |
